{"source": "patent US20140357845A1", "about": "(published 2014)", "binders": {"B1": {"name": "CR9114 (antibody, V domains shown)", "VH": "QVQLVQSGAEVKKPGSSVKVSCKSSGGTSNNYAISWVRQAPGQGLDWMGGISPIFGSTAYAQKFQGRVTISADIFSNTAYMELNSLTSEDTAVYFCARHGNYYYYSGMDVWGQGTTVTVSS", "VL": "SYVLTQPPAVSGTPGQRVTISCSGSDSNIGRRSVNWYQQFPGTAPKLLIYSNDQRPSVVPDRFSGSKSGTSASLAISGLQSEDEAEYYCAAWDDSLKGAVFGGGTQLTVL"}}, "molecular_target": "H5 mini-HA A/Vietnam/1203/2004 (influenza A virus H5N1, UniProt Q6DQ18 9-559)", "test": "FACS", "data": [{"binder": "B1", "values": [{"measurement": "binding result", "result": "binds"}]}]}
